{"source": "PubChem BioAssay AID1224833 | University of Georgia – 2016", "assay": "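Human genes whose knock-down alters rotavirus replication in monkey cells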 (primary screen)", "cell system": "monkey MA104 kidney cells", "reagent": "siRNA pool against human genes, 50 nM", "time to read-out": "48 h knock-down before infection; read 24 h after infection", "treatment": "infection with rotavirus strain RV3 two days after transfection; infectious dose for this stage not given", "measurement": "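z-score of rotavirus antigen signal per well, from a fluorescent immunoassay, relative to non-targeting control wells on the same plate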", "direction": "z-score vs non-targeting control: higher = more rotavirus replication than with non-targeting control", "rule for the call": "In these data the active calls have z-score vs non-targeting control at about -1 or lower, or at about 1 or higher", "calls": "active = z-score beyond 1 either way; inactive = z-score within 1 of zero", "note": "The whole screen tested about 12,000 reagents; shown is a part drawn at random. Of all reagents, about 5,600 (46%) were called active. 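Active calls cover z-scores past 1 in both directions, so they include lowered as well as raised rotavirus replication.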 A number with no mark means an inactive call. No sequences are given here."}
{"target gene": "IGSF1 (GeneID 3547)", "z-score vs non-targeting control": -0.607}
{"target gene": "ZNF703 (GeneID 80139)", "z-score vs non-targeting control": "-2.51 (active)"}
{"target gene": "OCLM (retired record) (GeneID 10896)", "z-score vs non-targeting control": "1.65 (active)"}
{"target gene": "CLYBL (GeneID 171425)", "z-score vs non-targeting control": "1.72 (active)"}
{"target gene": "DDOST (GeneID 1650)", "z-score vs non-targeting control": "-1.2 (active)"}
{"target gene": "NDUFA6 (GeneID 4700)", "z-score vs non-targeting control": -0.498}
{"target gene": "KLHL36 (GeneID 79786)", "z-score vs non-targeting control": 0.294}
{"target gene": "IGF2BP1 (GeneID 10642)", "z-score vs non-targeting control": -0.185}
{"target gene": "FAM217B (GeneID 63939)", "z-score vs non-targeting control": -0.741}
{"target gene": "ANKHD1 (GeneID 54882)", "z-score vs non-targeting control": "-1.42 (active)"}
{"target gene": "ANKS6 (GeneID 203286)", "z-score vs non-targeting control": -0.625}
{"target gene": "CST9 (GeneID 128822)", "z-score vs non-targeting control": -0.429}
{"target gene": "USF2 (GeneID 7392)", "z-score vs non-targeting control": "-1.47 (active)"}
{"target gene": "CAD (GeneID 790)", "z-score vs non-targeting control": 0.863}
{"target gene": "NBPF10 (GeneID 100132406)", "z-score vs non-targeting control": -0.907}
{"target gene": "RPS11 (GeneID 6205)", "z-score vs non-targeting control": "1.12 (active)"}
{"target gene": "H1-4 (GeneID 3008)", "z-score vs non-targeting control": "-1.87 (active)"}
{"target gene": "WFDC11 (GeneID 259239)", "z-score vs non-targeting control": "-1.81 (active)"}
{"target gene": "TANGO2 (GeneID 128989)", "z-score vs non-targeting control": -0.651}
{"target gene": "B9D1 (GeneID 27077)", "z-score vs non-targeting control": -0.516}
{"target gene": "DUSP26 (GeneID 78986)", "z-score vs non-targeting control": "-1.08 (active)"}
{"target gene": "PLPBP (GeneID 11212)", "z-score vs non-targeting control": -0.813}
{"target gene": "SF3B3 (GeneID 23450)", "z-score vs non-targeting control": -0.211}
{"target gene": "RAB11FIP3 (GeneID 9727)", "z-score vs non-targeting control": 0.402}
{"target gene": "E2F6 (GeneID 1876)", "z-score vs non-targeting control": "-2.05 (active)"}
{"target gene": "DCAF1 (GeneID 9730)", "z-score vs non-targeting control": -0.551}
{"target gene": "SLC31A2 (GeneID 1318)", "z-score vs non-targeting control": 0.848}
{"target gene": "OR2AG1 (GeneID 144125)", "z-score vs non-targeting control": "-2.65 (active)"}
{"target gene": "TOPBP1 (GeneID 11073)", "z-score vs non-targeting control": 0.757}
{"target gene": "USP5 (GeneID 8078)", "z-score vs non-targeting control": 0.764}
{"target gene": "GAST (GeneID 2520)", "z-score vs non-targeting control": -0.37}
{"target gene": "CCDC167 (GeneID 154467)", "z-score vs non-targeting control": 0.762}
{"target gene": "PARP8 (GeneID 79668)", "z-score vs non-targeting control": "1.21 (active)"}
{"target gene": "MDGA2 (GeneID 161357)", "z-score vs non-targeting control": -0.528}
{"target gene": "MFSD8 (GeneID 256471)", "z-score vs non-targeting control": "-1.91 (active)"}
{"target gene": "OR4D10 (GeneID 390197)", "z-score vs non-targeting control": -0.647}
{"target gene": "B4GALT2 (GeneID 8704)", "z-score vs non-targeting control": "1.38 (active)"}
{"target gene": "PGRMC1 (GeneID 10857)", "z-score vs non-targeting control": -0.649}
{"target gene": "PCSK1N (GeneID 27344)", "z-score vs non-targeting control": "1.2 (active)"}
{"target gene": "SART1 (GeneID 9092)", "z-score vs non-targeting control": "-2.02 (active)"}
{"target gene": "PRCC (GeneID 5546)", "z-score vs non-targeting control": "-1.04 (active)"}
{"target gene": "NAB1 (GeneID 4664)", "z-score vs non-targeting control": 0.823}
{"target gene": "MLNR (GeneID 2862)", "z-score vs non-targeting control": -0.688}
{"target gene": "CNOT11 (GeneID 55571)", "z-score vs non-targeting control": "1.72 (active)"}
{"target gene": "PSME3 (GeneID 10197)", "z-score vs non-targeting control": -0.158}
{"target gene": "UGT1A5 (GeneID 54579)", "z-score vs non-targeting control": "2.66 (active)"}
{"target gene": "SLC16A12 (GeneID 387700)", "z-score vs non-targeting control": -0.457}
